This is an account of results in patent publication US20020055094A1 (priority 1996, published 2002).

In test [1] the test system is NWS/G70C Influenza A virus (H1N9 subtype). The following applies: for absorption signal after capture: 21 at 1 and 10 μM, control 8 at 10 μM, serial two-fold virus dilutions.
Test [2] concerns the target whole virus influenza neuraminidase, influenza A strain NWS/G70C (Influenza A virus, UniProt P03472). The following applies: read-out: Binding Constants (M) / inhibition constants (IC50), NWS/G70C.

SMILES strings stand for the structures.

Regarding `CC(=O)N[C@H]1[C@H]([C@H](OC(=O)NCCCCCCNC(=O)NCCCCCCN)[C@H](O)CO)OC(C(=O)O)=C[C@@H]1NC(=N)N` [Compound No. 8, 5-acetamido-7-[6′-(6″-aminohexylureido)-hexyl]-carbamoyloxy-4-guanidino-2,3,4,5-tetradeoxy-D-glycero-D-galacto-non-2-enopyranosonic acid], in test [1], the “absorption signal after capture” value is “only a weak, unchanging absorption at all virus concentrations”. In addition, the IC50 in test [2] is 1e-08 M.
`CC(=O)N[C@H]1[C@H]([C@H](OC(=O)NCCCCCCNC(=O)CNC(=O)CNC(=O)CNC(=O)CCCC[C@@H]2SC[C@@H]3NC(=O)N[C@@H]32)[C@H](O)CO)OC(C(=O)O)=C[C@@H]1NC(=N)N` [Compound No. 21, 5-acetamido-7-(6′-biotinylamino-tricrlycinamido-hexy) -carbamoyloxy-4-guanidino-2,3,4,5-tetradeoxy-D-glycerQ-D-galacto-non-2-enopyranosonic acid]: the “absorption signal after capture” value in test [1] was “a strong absorption signal at the highest virus concentration and then a decreasing signal with virus dilution”. In addition, in test [1] (compound at 1 and 10 μM on avidin-coated wells, anti-hemagglutinin antibody / Ab-HRPO / ABTS readout), the “virus detection limit after capture” value is 1.6×10^5 pfu per test. Also, the IC50 in test [2] stood at 2e-08 M.
Consider `CC(=O)N[C@H]1[C@H]([C@H](OC(=O)NCCCCCCN)[C@H](O)CO)OC(C(=O)O)=C[C@@H]1NC(=N)N` [compound 11, 5-acetamido-7-(6′-aminohexyl)-carbamoyloxy-4-guanidino-2,3,4,5-tetradeoxy-D-glycero-D-galacto-non-2-enopyranosonic acid], for which the IC50 in test [2] was determined as 2e-08 M.
Take `CC(=O)N[C@H]1[C@H]([C@H](OC(=O)NCCCCCCNC(=O)OC(C)(C)C)[C@H](O)CO)OC(C(=O)O)=C[C@@H]1NC(=N)N` [compound 13, 5-acetamido-7-(6′-tert-butoxycarbonylaminohexyl)-carbamoyloxy-4-guanidino-2,3,4,5-tetradeoxy-D-glycero-D-galacto-non-2-enopyranosonic acid]: the IC50 in test [2] worked out at 2e-08 M.
As for `CC(=O)N[C@H]1[C@H]([C@H](OC(=O)NCCOCCOCCN)[C@H](O)CO)OC(C(=O)O)=C[C@@H]1NC(=N)N` [compound 17, 5-acetamido-7-{2-[2-(2-aminoethoxy)-ethoxy]-ethyl}-carbamoyloxy-4-guanidino-2,3,4,5-tetradeoxy-D-glycero-D-galacto-non-2-enopyranosonic acid], in test [2], the IC50 came out at 2e-08 M.
As for `CC(=O)N[C@H]1[C@H]([C@H](OC(=O)NCCCCCCNC(=O)CCCC[C@@H]2SC[C@@H]3NC(=O)N[C@@H]32)[C@H](O)CO)OC(C(=O)O)=C[C@@H]1NC(=N)N` [compound 19, 5-acetamindo-7-(6′-biotinylaminohexyl),carbamoyloxy-4-guanidino-2,3,4,5-tetradeoxy-D-crlvero-D-galacto-non-2-enopyranosonic acid], in test [2], the IC50 was found to be 5e-09 M.
Still for that read-out and setting: the same measure for `CC(=O)N[C@H]1[C@H]([C@H](OC(=O)NCCCCCCNC(=O)NCCCCCCNC(=O)OC(C)(C)C)[C@H](O)CO)OC(C(=O)O)=C[C@@H]1N` [compound 20, 5-acetamido-4-amino-7-[6′-(6″-tert-butoxycarbonyl-aminohexylureido) -hexyl]-carbamoyloxy-2,3,4,5-tetradeoxy-D-glycero-D-galacto-non-2-enopyanosonic acid]: 1e-05 M.
Still for that read-out and setting: for `CC(=O)N[C@H]1[C@H]([C@H](OC(=O)NCCCCCCNC(=O)CCCCCCCCCCCNC(=O)CCCC[C@@H]2SC[C@@H]3NC(=O)N[C@@H]32)[C@H](O)CO)OC(C(=O)O)=C[C@@H]1NC(=N)N` [compound 22, 5-Acetamido-7-(6′-biotinylamino-dodecanoyl-aminohexyl) -carbamoyl-4-guanidino-2,3,4,5-tetradeoxy-D-glycero-D-galacto-non-2-enopyranosonic acid] the value was 5e-09 M; for `CC(=O)N[C@H]1[C@H]([C@H](OC(=O)NCCCCCCNC(=O)CCCCCNC(=O)CCCC[C@@H]2SC[C@@H]3NC(=O)N[C@@H]32)[C@H](O)CO)OC(C(=O)O)=C[C@@H]1NC(=N)N` [compound 23, 5-Acetamido-7-(6′-biotinylamino-caproyl-aminohexyl) -carbamoyl-4-guanidino-2,3,4,5-tetradeoxy-D-glycero-D-galacto-non-enopyranosonic acid], 5e-09 M.
Take `CC(=O)N[C@H]1[C@H]([C@H](OC(=O)NCCCCCCNC(=O)CCCCCNC(=O)CCCCCNC(=O)CCCCCNC(=O)CCCCCN)[C@H](O)CO)OC(C(=O)O)=C[C@@H]1NC(=N)N` [compound 25, 5-acetamido-7-(6′-(6″-(6″′-aminocaproyl) -triaminocaproyl) -aminohexyl) -carbamoyloxy-4-guanidino-2,3,4,5-tetradeoxy-D-glycero-D-galacto-non-2-enopyranosonic acid]: the IC50 in test [2] turned out to be 4e-08 M.
